The nature of this series: general procedure: Fmoc solid-phase peptide synthesis; Wang resin (polystyrene-based, hydroxymethylphenoxyacetic acid linker), 0.57 mmole/g; DCI (N,N'-diisopropylcarbodiimide)/HOBt. The settings on record: oxidative folding step.

Experimental findings from patent US20020082384A1 (priority 2000, published 2002) are described below.

B1: hu-I-309 (peptide, UniProt P22362 24-96, looked up)
C-C motif chemokine 1: KSMQVPFSRCCFSFAEQEIPLRAILCYRNTSSICSNEGLIFKLKRGKEACALDTVGWVQRHRKMLRHCPSKRK
Take B1: the oxidative folding yield result is “almost 25%”.
